# Data from patent US7964624B1, “Inhibitors of serine proteases” (priority 2005, dated 2011).
# Amino acid sequences for entries named in this document (tags omitted). Chains listed by the source or under a name are the forms on record and can include a tag or linker. Residues count along the entry.
# UniProt P27958, 1658-1711 partner limits assumed: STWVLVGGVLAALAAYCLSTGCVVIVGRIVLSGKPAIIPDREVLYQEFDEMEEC
# UniProt P27958, 1027-1711 with tags or gaps with the stated changes: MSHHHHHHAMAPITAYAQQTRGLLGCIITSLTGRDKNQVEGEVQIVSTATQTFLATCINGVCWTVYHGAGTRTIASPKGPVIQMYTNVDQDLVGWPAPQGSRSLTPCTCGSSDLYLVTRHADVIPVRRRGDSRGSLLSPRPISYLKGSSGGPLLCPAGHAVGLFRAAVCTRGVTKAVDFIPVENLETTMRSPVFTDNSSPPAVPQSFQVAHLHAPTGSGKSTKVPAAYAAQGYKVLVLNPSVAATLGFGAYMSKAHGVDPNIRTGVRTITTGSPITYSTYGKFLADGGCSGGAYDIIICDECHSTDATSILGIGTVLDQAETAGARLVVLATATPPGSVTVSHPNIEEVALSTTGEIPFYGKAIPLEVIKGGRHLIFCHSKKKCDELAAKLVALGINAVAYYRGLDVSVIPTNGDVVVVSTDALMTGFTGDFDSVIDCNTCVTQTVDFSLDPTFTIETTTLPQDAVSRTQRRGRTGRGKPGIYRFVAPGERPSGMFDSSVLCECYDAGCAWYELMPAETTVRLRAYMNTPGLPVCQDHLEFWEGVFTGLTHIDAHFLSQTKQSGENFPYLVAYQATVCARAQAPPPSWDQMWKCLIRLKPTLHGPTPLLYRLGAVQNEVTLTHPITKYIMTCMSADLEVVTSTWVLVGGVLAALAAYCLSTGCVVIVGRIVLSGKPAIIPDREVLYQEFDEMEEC
# Target: full-length hepatitis C viral protein NS3•4A (Hepatitis C virus genotype 1a, UniProt P27958)
# Assay: HCV NS3 Peptide Cleavage Assay (Enzyme Assay 2), apparent Ki
# Conditions: read-out: Enzyme Assay 2 (HCV NS3 Peptide Cleavage Assay) activity; apparent Ki class
# From the text: Using standard recombinant DNA techniques, a cDNA fragment encoding the sequence for NS3 and NS4A, residues Ala1027 to Cys1711 from the HCV sub-type strain 1a, containing an N-terminal hexa-histidine sequence, was cloned into the baculoviral transfer vector pVL1392 (Webb N R and Summers M D (1990) Expression of proteins using recombinant baculoviruses, Techniques 2:173-188). […] The transfected insect cells containing recombinant baculovirus clones were subsequently isolated by plaque purification. High-titer clonal baculovirus was routinely used to infect SD insect cells for protein production. In production, Sf9 cells were grown at 27° C. until they reached a density of 2.0×10^6 cells/ml. At this point, the insect cells were infected with virus. After 72 hours or when the cell viability was between 70-80% the culture was harvested and the cells were ready for purification. The NS3•4A protein (SEQ ID NO:1) was purified as follows. Cell paste was thawed in at least five volumes of Lysis Buffer (50 mM Na2HPO4 pH 8.0, 10% Glycerol, 300 mM NaCl, 5 mM β-mercaptoethanol, 0.2 mM PMSF, 2.5 μg/ml Leupeptin, 1.0 μg/mlE64, 2.0 μg/ml Pepstatin) per gram of cell paste. The cell paste was then homogenized on ice using a Dounce homogenizer. The cells were next mechanically disrupted by passing once through a microfluidizer (Microfluidics Corporation, Newton, Mass.), and the cell lysate was collected on ice. The cell lysates was centrifuged at 100,000×g for 30 minutes at 4° C. and the supernatants were decanted. Optionally, the pellets were resuspended in wash buffer (Lysis Buffer+0.1% β-octyl glucopyranoside), homogenized using a Dounce homogenizer and centrifuged at 100,000×g for 30 minutes at 4° C. Insoluble NS3° 4A was extracted from the pellets by resuspending in Extraction Buffer (Lysis Buffer+0.5% lauryl maltoside) using 2.5 ml/g cell paste. The mixture was homogenized using a Dounce homogenizer and mixed at 4° C. for three hours or more. The mixture was centrifuged at 100,000×g for 30 minutes at 4° C. The supernatants were decanted and pooled. The NS3•4A protein was further purified using Nickel-NTA metal affinity chromatography. Imidazole from a 2 M stock, pH 8.0, solution was added to the pooled supernatants so that the final concentration of imidazole was 10 mM. The supernatants were incubated batchwise overnight at 4° C. with Nickel-NTA affinity resin that had been pre-equilibrated with Lysis Buffer+10 mM imidazole. 1 ml of resin per 5 μg of expected NS3-4A was used. The resin was next settled by gravity or by centrifugation at 500×g for five minutes. The resin was next poured into a gravity flow column and washed with 10 or more column volumes of Nickel Wash Buffer (Lysis Buffer+0.1% lauryl maltoside+10 mM imidazole). The column was next eluted with three to four column volumes of Nickel Elution Buffer (Nickel Wash Buffer+300 mM imidazole). The elution fractions were collected on ice and evaluated using SDS-PAGE. To prevent NS3-4A proteolysis, 100 μM DFP protease inhibitor was added to gel samples before adding SDS sample buffer and boiling. The peak fractions were pooled and protein concentration was determined by measuring absorbance at 280 ηm and by dividing by the extinction coefficient (e), which for NS3•4A is 1.01. The NS3•4A was purified further using gel filtration chromatography. A Superdex 200 26/60 column was equilibrated with Superdex Buffer (20 mM HEPES pH 8.0, 10% glycerol, 300 mM NaCl, 10 mM β-mercaptoethanol, 0.05% lauryl maltoside) at a rate of 3 ml/min. The nickel purified NS3•4A was concentrated in a Centriprep 30 to greater than 2 mg/ml, if necessary, and was filtered through a 0.2 μm syringe filter and up to 10 ml was loaded onto the Superdex 200 column. After 0.3 column volumes passed through, 4-5 ml fractions were collected. Fractions were evaluated by SDS-PAGE. NS3•4A protein elutes in two peaks. Peak 1 contains aggregated NS3•4A and peak 2 contains active protein. The fractions of peak 2 were pooled, aliquoted and frozen at −70° C. […]
row,Structure (SMILES),Ki
1,CCC[C@H](NC(=O)[C@@H]1C[C@]2(CC(c3cccc(Cl)c3)=NO2)CN1C(=O)[C@@H](NC(=O)CC(C)(C)OC)C(C)(C)C)C(=O)C(N)=O,< 100 nM
2,CNC(=O)C(=O)[C@@H](CC1CC1)NC(=O)[C@@H]1C[C@]2(CC(c3cccc(Cl)c3)=NO2)CN1C(=O)[C@@H](NC(=O)CC1CCCCC1)C(C)(C)C,> 500 nM
3,CNC(=O)C(=O)[C@H](CC1CC1)NC(=O)[C@@H]1C[C@]2(CC(c3cc(C)c(OC)c(C)c3)=NO2)CN1C(=O)[C@@H](NC(=O)OC1CCCC1)C(C)(C)C,< 100 nM
4,CCC[C@@H](NC(=O)[C@@H]1C[C@]2(CC(c3cc(C)c(OC)c(C)c3)=NO2)CN1C(=O)[C@@H](NC(=O)OC1CCCC1)C(C)(C)C)C(=O)C(=O)NC,> 500 nM
5,CCC[C@H](NC(=O)[C@@H]1C[C@]2(CC(c3nccc4ccccc34)=NO2)CN1C(=O)[C@@H](NC(=O)OC1CCCC1)C(C)(C)C)C(=O)C(=O)NC,100 to 500 nM
6,CCC[C@H](NC(=O)[C@@H]1C[C@]2(CC(c3cc(Cl)ccc3OC)=NO2)CN1C(=O)[C@@H](NC(=O)OC1CCCC1)C(C)(C)C)C(=O)C(N)=O,< 100 nM
7,COc1c(C)cc(C2=NO[C@]3(C2)C[C@@H](C(=O)N[C@@H](CC2CC2)C(=O)C(N)=O)N(C(=O)[C@@H](NC(=O)[C@H]2C[C@@H]2c2ccccc2)C(C)(C)C)C3)cc1Cl,< 100 nM
8,CCC[C@H](NC(=O)[C@@H]1C[C@]2(CC(c3cc(C)c(OCC)c(Cl)c3)=NO2)CN1C(=O)[C@@H](NC(=O)OC(C)(C)C)C(C)(C)C)C(=O)C(=O)NC,< 100 nM
9,COc1c(C)cc(C2=NO[C@]3(C2)C[C@@H](C(=O)N[C@H](CC2CC2)C(=O)C(=O)NC2CC2)N(C(=O)[C@@H](NC(=O)OC2CCCC2)C(C)(C)C)C3)cc1C,100 to 500 nM
10,CCC[C@H](NC(=O)[C@@H]1C[C@]2(CC(c3cc(C)c(OC)c(C)c3)=NO2)CN1C(=O)[C@@H](NC(=O)CC(C)(C)C)C(C)(C)C)C(=O)C(=O)NC,100 to 500 nM
11,CNC(=O)C(=O)[C@H](CC1CC1)NC(=O)[C@@H]1C[C@]2(CC(c3cccc(Cl)c3)=NO2)CN1C(=O)[C@@H](NC(=O)[C@H]1CC1(F)F)C(C)(C)C,< 100 nM
12,CNC(=O)C(=O)[C@H](CC1CC1)NC(=O)[C@@H]1C[C@]2(CC(c3cccc4cccnc34)=NO2)CN1C(=O)[C@@H](NC(=O)CC1CCCCCC1)C(C)(C)C,< 100 nM

# Same assay, conditions: read-out: Enzyme Assay 2; HCV NS3 Peptide Cleavage Assay, apparent Ki
row,Structure (SMILES),Ki
1,CCNC(=O)C(=O)[C@H](CC1CC1)NC(=O)[C@@H]1C[C@]2(CC(c3cc(C)c(OC)cc3OC)=NO2)CN1C(=O)[C@@H](NC(=O)CC1CCCCC1)C(C)(C)C,< 100 nM
2,CNC(=O)C(=O)[C@H](CC1CC1)NC(=O)[C@@H]1C[C@]2(CC(c3cccc(Cl)c3)=NO2)CN1C(=O)[C@@H](NC(=O)[C@@H]1C[C@@H]1c1ccccc1)C(C)(C)C,< 100 nM
3,CCC[C@H](NC(=O)[C@@H]1C[C@]2(CC(c3cc(Cl)c(OC)cc3OC)=NO2)CN1C(=O)[C@@H](NC(=O)[C@@H]1C[C@H]1c1ccccc1)C(C)(C)C)C(=O)C(=O)NC1CC1,< 100 nM
4,CCC[C@H](NC(=O)[C@@H]1C[C@]2(CC(c3cccc(Cl)c3)=NO2)CN1C(=O)[C@@H](NC(=O)[C@@H]1C[C@H]1CC)C(C)(C)C)C(=O)C(=O)NC1CC1,< 100 nM
5,CCOc1c(C)cc(C2=NO[C@]3(C2)C[C@@H](C(=O)N[C@@H](CC2CC2)C(=O)C(=O)NC)N(C(=O)[C@@H](NC(=O)[C@@H]2C[C@H]2c2ccccc2)C(C)(C)C)C3)cc1C,< 100 nM
6,CNC(=O)C(=O)[C@H](CC1CC1)NC(=O)[C@@H]1C[C@]2(CC(c3cccc(Cl)c3)=NO2)CN1C(=O)[C@@H](NC(=O)[C@@H]1[C@@H](C=C(C)C)C1(C)C)C(C)(C)C,100 to 500 nM
7,CNC(=O)C(=O)[C@H](CC1CC1)NC(=O)[C@@H]1C[C@]2(CC(c3cc(C)c(OC)cc3OC)=NO2)CN1C(=O)[C@@H](NC(=O)OC1CCCC1)C(C)(C)C,< 100 nM
8,CCC[C@H](NC(=O)C1C[C@]2(CC(c3cccc(Cl)c3)=NO2)CN1C(=O)[C@@H](NC(=O)C1C2CCCCC21)C(C)(C)C)C(=O)C(=O)NC1CC1 (some centres unmarked),< 100 nM
9,CCC[C@H](NC(=O)[C@@H]1C[C@]2(CC(c3cc(C)c(OCC)c(C)c3)=NO2)CN1C(=O)[C@@H](NC(=O)OC1CCCC1)C(C)(C)C)C(=O)C(=O)NC,100 to 500 nM
10,CCC[C@H](NC(=O)[C@@H]1C[C@]2(CC(c3cc(C)c(OCC)c(Cl)c3)=NO2)CN1C(=O)[C@@H](NC(=O)CC1CCCCC1)C(C)(C)C)C(=O)C(=O)NC1CC1,< 100 nM
11,CNC(=O)C(=O)[C@H](CC1CC1)NC(=O)[C@@H]1C[C@]2(CC(c3cccc(Cl)c3)=NO2)CN1C(=O)[C@@H](NC(=O)[C@@H]1C[C@H]1C1CCCCC1)C(C)(C)C,< 100 nM
12,CNC(=O)C(=O)[C@H](CC1CC1)NC(=O)[C@@H]1C[C@]2(CC(c3cc(C)c(OC)cc3OC)=NO2)CN1C(=O)[C@@H](NC(=O)CC1CCCCC1)C(C)(C)C,< 100 nM
13,CCC[C@H](NC(=O)[C@@H]1C[C@]2(CC(c3cc(Cl)c(OC)cc3O)=NO2)CN1C(=O)[C@@H](NC(=O)CC1CCCCC1)C(C)(C)C)C(=O)C(=O)NC1CC1,< 100 nM
14,CCC[C@H](NC(=O)[C@@H]1C[C@]2(CC(c3cc(Cl)c(OCC)cc3OC)=NO2)CN1C(=O)[C@@H](NC(=O)OC1CCCC1)C(C)(C)C)C(=O)C(=O)NC1CC1,< 100 nM
15,CCC[C@H](NC(=O)[C@@H]1C[C@]2(CC(c3cc(C)c(OC)c(C)c3)=NO2)CN1C(=O)[C@@H](NC(=O)[C@@H]1C[C@H]1C(C)C)C(C)(C)C)C(=O)C(=O)NC1CC1,< 100 nM
16,CCC[C@H](NC(=O)[C@@H]1C[C@]2(CC(c3cccc(Cl)c3)=NO2)CN1C(=O)[C@@H](NC(=O)C1(C)CC1)C(C)(C)C)C(=O)C(=O)NC1CC1,100 to 500 nM
17,CNC(=O)C(=O)[C@H](CC1CC1)NC(=O)[C@@H]1C[C@]2(CC(c3cccc(Cl)c3)=NO2)CN1C(=O)[C@@H](NC(=O)C1C(C)(C)C1(C)C)C(C)(C)C,100 to 500 nM
18,CCC[C@H](NC(=O)[C@@H]1C[C@]2(CC(c3cccc(Cl)c3)=NO2)CN1C(=O)[C@@H](NC(=O)C1C(C)(C)C1(C)C)C(C)(C)C)C(=O)C(=O)NC1CC1,< 100 nM
19,CCC[C@H](NC(=O)[C@@H]1C[C@]2(CC(c3cccc(Cl)c3)=NO2)CN1C(=O)[C@@H](NC(=O)[C@@H]1C[C@H]1C1CCCCC1)C(C)(C)C)C(=O)C(N)=O,< 100 nM
20,CCC[C@H](NC(=O)[C@@H]1C[C@]2(CC(c3cccc(Cl)c3)=NO2)CN1C(=O)[C@@H](NC(=O)[C@@H]1C[C@H]1CC(C)C)C(C)(C)C)C(=O)C(=O)NC,< 100 nM
21,CCNC(=O)C(=O)[C@H](CC1CC1)NC(=O)[C@@H]1C[C@]2(CC(c3cc(C)c(OC)cc3OC)=NO2)CN1C(=O)[C@@H](NC(=O)[C@@H]1C[C@H]1c1ccccc1)C(C)(C)C,< 100 nM
22,CCC[C@H](NC(=O)[C@@H]1C[C@]2(CC(c3cccc(Cl)c3)=NO2)CN1C(=O)[C@@H](NC(=O)[C@H]1C[C@@H]1c1c[nH]cn1)C(C)(C)C)C(=O)C(=O)NC1CC1,< 100 nM
23,CCNC(=O)C(=O)[C@H](CC1CC1)NC(=O)[C@@H]1C[C@]2(CC(c3cc(C)c(OCC)c(C)c3)=NO2)CN1C(=O)[C@@H](NC(=O)[C@@H]1C[C@H]1c1ccccc1)C(C)(C)C,< 100 nM
24,CCOc1c(C)cc(C2=NO[C@]3(C2)C[C@@H](C(=O)N[C@@H](CC2CC2)C(=O)C(=O)NC)N(C(=O)[C@@H](NC(=O)OC2CCCC2)C(C)(C)C)C3)cc1C,< 100 nM
25,CNC(=O)C(=O)[C@H](CC1CC1)NC(=O)[C@@H]1C[C@]2(CC(c3cc(Cl)c(OC)cc3OC)=NO2)CN1C(=O)[C@@H](NC(=O)C1CC1)C(C)(C)C,< 100 nM
26,CCC[C@H](NC(=O)[C@@H]1C[C@]2(CC(c3cccc(Cl)c3)=NO2)CN1C(=O)[C@@H](NC(=O)C1(C)COC1)C(C)(C)C)C(=O)C(=O)NC1CC1,100 to 500 nM
